PubChem BioAssay AID624099 – ICCB-Longwood – 2012

- Assay: 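Human genes that papillomavirus E2 requires to repress the HPV18 LCR promoter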 (primary screen)
- Cells: human C33A cervical carcinoma cells (HPV-negative) stably expressing BPV1 E2 and an HPV18 LCR luciferase reporter
- Reagents: siRNA pool against human genes, 40 nM
- Timing: 72 h
- Detection: 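HPV18 LCR reporter light per well, converted to plate-wise z-scores that exclude control wells, and averaged over triplicate plates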
- Scale: mean z-score and z-score: higher = stronger reporter signal, weaker E2 silencing
- Active means: 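Hit if mean z-score reaches 2 and two or more of three replicate z-scores also reach 2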
In all, the deposit lists about 21,000 reagents; shown is a part drawn at random. 497 of all reagents (2.4%) were called active. 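Higher z means weaker E2 silencing; only reporter increases were scored, and knock-downs that hurt cell survival may mask genuine repressor factors.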

With knock-down of CALB2, the record shows mean z-score -0.88; z-score, replicate A = -0.48; z-score, replicate B = -1.1; z-score, replicate C = -1.06; inactive. With knock-down of METAP2, the record shows mean z-score 0.19; z-score, replicate A = 0.25; z-score, replicate B = 0.43; z-score, replicate C = -0.11; inactive. For NAF1 the deposit lists mean z-score 0.46; z-score, replicate A = 0.68; z-score, replicate B = 0.19; z-score, replicate C = 0.52; inactive. Against MCF2L2, the entry reads mean z-score 0.18; z-score, replicate A = 0.07; z-score, replicate B = -0.03; z-score, replicate C = 0.49; inactive. Knock-down of ADH6 gave: mean z-score -0.28; z-score, replicate A = -0.26; z-score, replicate B = -0.16; z-score, replicate C = -0.41; inactive. For UBR4, the values are mean z-score 0.28; z-score, replicate A = -0.13; z-score, replicate B = 0.3; z-score, replicate C = 0.66; inactive.

After knock-down of CORO1B, the record shows mean z-score -1.59; z-score, replicate A = -1.72; z-score, replicate B = -1.48; z-score, replicate C = -1.57; inactive. Silencing of PIH1D2 gave: mean z-score 1.33; z-score, replicate A = 1.41; z-score, replicate B = 1.6; z-score, replicate C = 0.98; inactive. Silencing of ANGPTL3 came out at: mean z-score -0.69; z-score, replicate A = -0.5; z-score, replicate B = -1.06; z-score, replicate C = -0.5; inactive. Silencing of PHYHD1 gave: mean z-score 0.36; z-score, replicate A = 0.6; z-score, replicate B = -0.04; z-score, replicate C = 0.51; inactive. CCDC144BP showed mean z-score -1.38; z-score, replicate A = -1.54; z-score, replicate B = -1.44; z-score, replicate C = -1.17; inactive. USP20 gave mean z-score -1.43; z-score, replicate A = -1.28; z-score, replicate B = -1.51; z-score, replicate C = -1.5; inactive.

Limited to “mean z-score”, for 2 of the entries above:
PIH1D2: 1.33
ANGPTL3: -0.69
